In assay [1] the target is HA ectodomain of A/California/04/2009(H1N1) with G205C and R220C (influenza A virus A/California/04/2009(H1N1)). The assay can be described thus: not stated; purified HA ectodomain in solution; data in Supplementary Fig. 2.
The target is the same in assay [2]. The assay can be described thus: crystal structure.

As to “HA ectodomain of A/California/04/2009(H1N1) with G205C and R220C (domain or fragment)”, the stoichiometry N in assay [1] and in assay [2] was 3 throughout.

Usually stoichiometry N stands for the number of molecules, sites or subunits per partner or assembly.

The values above are taken from paper PMC5477490, “Human antibody 3E1 targets the HA stem region of H1N1 and H5N6 influenza A viruses” (2016).
